HIV-1 1203 Vif substitutions under APOBEC3G selection

Protein: Vif of HIV-1 1203 (a subtype B primary isolate). Residues 12-115 were scanned and are shown below; the first letter is residue 12.
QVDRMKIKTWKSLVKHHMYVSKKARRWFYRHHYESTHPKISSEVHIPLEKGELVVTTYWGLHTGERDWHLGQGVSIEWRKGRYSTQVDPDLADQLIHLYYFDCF

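A pool of vif mutants was passaged twice, 72 h each, on SupT1 cells that express APOBEC3G. Each of three replicates was sequenced after round two and set against the merged round-one pool.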

Scale: log2 enrichment, wild type = 0; negative values mean that the variant was depleted. Substitutions are written as wild-type residue, site number, new residue. This list holds changes to tryptophan only. The median of three replicates is given. Input reads are the counts in the merged round-one pool, before selection. The authors note that some positive scores may be noise, and some enriched variants failed when tested singly.

substitution,input reads,median log2 enrichment
Q12W,196,-1.49
R15W,262,-1.52
M16W,428,-2.06
T20W,333,1.07
S23W,19,1.38
L24W,374,-2.51
H27W,203,-2.88
M29W,580,-1.71
Y30W,43,4.39
R36W,38,2.04
H42W,425,-1.20
H43W,195,-2.33
K50W,22,-2.53
E54W,31,-3.01
V55W,170,-1.72
H56W,256,-2.12
L59W,223,-2.53
G62W,180,-3.96
L64W,34,-1.95
V66W,278,-2.70
T67W,231,-1.64
T68W,35,-0.38
Y69W,179,-1.61
G71W,254,-1.20
R77W,234,-1.37
D78W,16,2.66
L81W,40,-0.27
G82W,448,-3.11
R90W,131,0.46
G92W,359,-1.47
S95W,406,-2.29
V98W,2056,-2.43
A103W,435,-3.28
L106W,21,-2.86
I107W,184,-2.26
Y110W,107,-1.47
C114W,473,-3.07
F115W,448,-2.02

A selection of 2 entries from above:

{"substitution": "M29W", "input reads": "580", "median log2 enrichment": -1.71}
{"substitution": "G82W", "input reads": "448", "median log2 enrichment": -3.11}

Not every substitution is listed. Replicates agree only moderately (rank correlation about 0.4-0.65); scores from under about 50 input reads tend to be too high.

Values reported by Langley et al. 2025, preprint (doi:10.1101/2025.10.20.683452).